Anti-infective test results gathered from many reports (values: NIAID ChemDB through PubChem).

All rows: growth or infection tests; species: Rhinovirus; cell line: HeLa; measure: EC50

Lines come from different laboratories, so protocols vary. ECn is the concentration giving n% inhibition of infection, replication or growth.

smiles	strain or isolate	method	value
COc1ccc(C(=O)CCCCOc2ccc(C#N)cc2)cc1	Serotype 14	cytopathic effect	>253 µM
N#Cc1cccnc1Oc1ccc(C(=O)c2ccccc2)cc1	TYPE 1A	cytopathic effect	>10 µg/mL
O=C(/C=C(\O)c1ccccc1O)/C=C/c1ccc(O)cc1	Serotype 14	plaque count	8.64 µM
Cc1ccc(C(=O)CCCCOc2ccc(C3=NCCO3)cc2)s1	Serotype 14	cytopathic effect	0.14 µM
N#Cc1ccc(C2=Cc3ccccc3OC2)cc1	Serotype 1B	plaque count	1.41 µM
CCOc1cc(CCCOc2c(C)cc(-c3noc(C)n3)cc2C)on1	Serotype 6	cytopathic effect	0.045 µg/mL
Clc1ccc(C2CCc3cc(C4=NCCO4)ccc3O2)cc1	TYPE 1B	plaque count	0.51 µM
N#Cc1cc([N+](=O)[O-])ccc1Oc1ccc(Cl)c(Cl)c1	HANK	cytopathic effect	1.5 µg/mL
COc1ccc(OCCCCCCn2ccnc2)c(Cl)c1	TYPE 10	plaque count	29.1 µM
N=C(N)c1ccc(C2=Cc3ccccc3OC2)cc1	Serotype 1B	plaque count	22.4 µM
Cc1nc(-c2cc(C)c(OCCCc3cc(C(F)(F)F)no3)c(C)c2)no1	Serotype 14	cytopathic effect	0.305 µg/mL
CCOc1cc(OC)ccc1-c1cc(N(CC)CC)no1	Serotype 63 (group B)	cytopathic effect	>90 µM
CC(=O)c1coc(CCCOc2c(C)cc(-c3noc(C)n3)cc2C)c1	Serotype 14	cytopathic effect	1.4 µM
COc1cc(/C=C/C(=O)Oc2c(-c3ccc(Cl)c(Cl)c3)oc3ccccc3c2=O)ccc1O	Serotype 1B	plaque count	>1.56 µM
O=c1cc(/C=C/c2ccc(Cl)cc2)oc2ccc(Cl)cc12	Serotype 1B	plaque count	9.27 µM
N#Cc1ccc(C2CCc3cc(C#N)ccc3O2)cc1	TYPE 1B	plaque count	0.023 µM
O=C(/C=C(\O)c1ccccc1O)/C=C/c1ccc(Cl)cc1	Serotype 14	plaque count	>12.5 µM
CC(=O)c1ccc(CCCOc2c(C)cc(-c3noc(C)n3)cc2C)o1	15 serotype mixtures	cytopathic effect	<0.4 µM
CS(=O)(=O)c1cnc2c(c1)CCC(c1ccc(Cl)c(Cl)c1)O2	Serotype 2	cytopathic effect	0.002 µg/mL
N#Cc1ccc2c(c1)CCC(c1ccccc1)O2	TYPE 1B	plaque count	0.14 µM
COC(=O)c1cc(CCCOc2c(C)cc(-c3noc(C)n3)cc2C)on1	Serotype 30	cytopathic effect	0.015 µg/mL
N=C(N)c1ccc(C2CCc3cc(C(=N)N)ccc3O2)cc1	Serotype 1B	cytopathic effect	>40 µM
C#CCOc1cc(OC)ccc1-c1cc(N(CC)CC)no1	Serotype 85 (group B)	cytopathic effect	>40 µM
N=C(N)c1ccc(C2CCc3ccccc3O2)cc1	Serotype 1B	plaque count	0.45 µM
COc1cc(C(=O)Oc2c(-c3ccc(Cl)cc3)oc3ccccc3c2=O)ccc1O	Serotype 14	plaque count	>6.25 µM
Cc1cc(CCCCCOc2c(Cl)cc(C3=NCCO3)cc2Cl)on1	TYPE 15	plaque count	0.13 µg/mL
Cc1ccc(/C=C/C(=O)/C=C(\O)c2ccccc2O)cc1	Serotype 1B	plaque count	11.88 µM
CCOC(=O)c1cc(Cl)c(OCCCCC(=O)c2ccc(OC)cc2)c(Cl)c1	Serotype 2	cytopathic effect	3.6 µM
CCN(CC)c1cc(-c2ccc(OC)cc2OC)on1	Serotype 86 (group A)	cytopathic effect	>362 µM
N#Cc1ccc(OCCCCC(=O)c2ccccc2)cc1	Serotype 2	cytopathic effect	>267 µM
COc1ccc(-c2cc(N3CCCC3)no2)c(O)c1	Serotype 51 (group B)	cytopathic effect	104 µM
CS(=O)(=O)c1ccc(Oc2ccc(C(=O)c3ccccc3)cc2)nc1	TYPE 1B	cytopathic effect	>5 µg/mL
CCOC(=O)c1ccc(OCCCCC(=O)c2ccc(Cl)cc2)cc1	Serotype 2	cytopathic effect	2.5 µM
COc1ccc(-c2cc(N(C)C)no2)c(O)c1	Serotype 2	cytopathic effect	>427 µM
O=c1c(O)c(-c2ccc(Cl)c(Cl)c2)oc2ccccc12	Serotype 14	plaque count	1.01 µM
Nc1ccc(/C=C/c2cc(=O)c3ccccc3o2)cc1	Serotype 14	plaque count	13.46 µM
CC(=O)c1c(-c2ccc(Cl)c(Cl)c2)oc2ccccc2c1=O	Serotype 14	plaque count	0.83 µM
CCOC(=O)c1cc(Cl)c(OCCCCC(=O)c2ccc(Cl)cc2)c(Cl)c1	Serotype 2	cytopathic effect	5.5 µM
O=C(Oc1c(-c2ccc(Cl)c(Cl)c2)oc2ccccc2c1=O)c1cc(OCc2ccccc2)c(OCc2ccccc2)c(OCc2ccccc2)c1	Serotype 1B	plaque count	>6.25 µM
N#Cc1ccc(C2CCc3ccccc3O2)cc1	TYPE 1B	cytopathic effect	40 µM

Again, the opening 5 rows:

COc1ccc(C(=O)CCCCOc2ccc(C#N)cc2)cc1 ; strain or isolate: Serotype 14 ; method: cytopathic effect ; value: >253 µM
N#Cc1cccnc1Oc1ccc(C(=O)c2ccccc2)cc1 ; strain or isolate: TYPE 1A ; method: cytopathic effect ; value: >10 µg/mL
O=C(/C=C(\O)c1ccccc1O)/C=C/c1ccc(O)cc1 ; strain or isolate: Serotype 14 ; method: plaque count ; value: 8.64 µM
Cc1ccc(C(=O)CCCCOc2ccc(C3=NCCO3)cc2)s1 ; strain or isolate: Serotype 14 ; method: cytopathic effect ; value: 0.14 µM
N#Cc1ccc(C2=Cc3ccccc3OC2)cc1 ; strain or isolate: Serotype 1B ; method: plaque count ; value: 1.41 µM